Compound potency records, mixed from different reports. Data source: NIAID ChemDB in PubChem.

Common to all: tests in culture; organism: Mycobacterium tuberculosis

Inhibition is in % at the dose shown (toxicity tests: loss of growth or viability).

SMILES,mutations,strain,method,tested at,measure,conditions,value
Oc1c(N2CCOCC2)cc(-c2cc(N3CCOCC3)c(O)c3ccccc23)c2ccccc12,,H37Rv,BACTEC,12.5 µg/mL,inhibition,,55%
CN(C)/C=N/S(=O)(=O)c1nn2c(/C=N/N=C(N)N)c(-c3ccc(Cl)cc3)nc2s1,,H37Rv,,,MIC,,>6.25 µg/mL
COc1ccc(-c2noc(C3=CC4(CCN(CC5CCCO5)CC4)c4ccccc43)n2)cc1,,H37Rv,resazurin,,MIC,,0.3 µM
O=C(NC1=NS(=O)(=O)c2ccccc2N1c1ccccc1)c1ccc(Cl)nc1,,Clinical isolates drug-sensitive,,,MIC,,>16 µg/mL
C1=C(c2nc(-c3ccccc3)no2)c2ccccc2OC12CCN(CC1CCCO1)CC2,,ss18b,resazurin,,EC80,,50 µM
Cc1ccc(-c2nc3sc(S(=O)(=O)/N=C/N(C)C)nn3c2/C=N/N=C(N)N)cc1,,H37Rv,,,MIC,,>6.25 µg/mL
CCOC(=O)Cc1cc(C2C3CC4CC(C3)CC2C4)nc2ccccc12,,H37Rv,,,MIC,,>6.25 µg/mL
Cn1cnc2c(NS(=O)(=O)c3ccccc3F)nc(Cl)cc21,,H37Rv,visual reading,,MIC99,,6.5 µM
Cc1c(-c2nc3cc(C(C)(C)C)cc(C(C)(C)C)c3o2)[nH]c2ccccc12,,My 331/88,,,MIC,,250 µM
Cc1c(CN2CCN(C)CC2)c(CN2CCN(C)CC2)c(C)n1Cc1ccccc1,,103471,,,MIC,,>64 µg/mL
COc1cc(-c2cn3nc(S(N)(=O)=O)sc3n2)cc(OC)c1OC,,H37Rv,,6.25 µg/mL,inhibition,,5%
O=C(Oc1ccc(Cl)cc1C(=O)Nc1ccc(C(F)(F)F)cc1)c1ccccc1,,Praha 1,broth dilution,,MIC,14 d,0.5 µM
O=[N+]([O-])c1ccc(-c2cn3nc(C(F)(F)F)sc3n2)cc1,,H37Rv,,6.25 µg/mL,inhibition,,41%
O=C(O)c1cc(C2CCCCC2)c2ccccc2n1,,H37Rv,,,MIC,,>6.25 µg/mL
COc1cc(/C=C2\N=C(C)OC2=O)cc(Cl)c1OC,,H37Rv,BACTEC,12.5 µg/mL,inhibition,,-12%
CCCCCCCCCCCCCCC(Oc1ccccc1)C(=O)O,,H37Rv,,,MIC,,10 µg/mL
OC(CN1CCCCC1)c1ccc2oc3ccccc3c2c1,,H37Rv,BACTEC,12.5 µg/mL,inhibition,,30%
COC(=O)Cc1cc(C2CCCC2)nc2ccccc12,,H37Rv,,,MIC,,>6.25 µg/mL
CN[C@@H]1[C@H](O[C@H]2[C@H](O[C@H]3[C@H](O)[C@@H](O)[C@H](N=C(N)N)[C@@H](O)[C@@H]3N=C(N)N)O[C@@H](C)[C@]2(O)C=O)O[C@@H](CO)[C@H](O)[C@H]1O,,Clinical isolate 8,,,MIC,,3 µg/mL
CC(C)(C)c1cc(C(C)(C)C)c2oc(C(N)=O)nc2c1,,My 331/88,,,MIC,,125 µM
NNC(=O)c1ccncc1,,Clinical isolate 12,,,MIC,,5 µg/mL
O=C1C(=Nc2cccc(Cl)c2)CC(c2ccc(Cl)cc2)N1c1ccc(Cl)cc1,,H37Rv,BACTEC,,MIC bound,,>6.25 µg/mL
O=C(O)c1cc(C2CCCCC2)nc2ccccc12,,H37Rv,,,MIC,,>6.25 µg/mL
CCCCCCn1c(C)c(CN2CCN(C)CC2)c(CN2CCN(C)CC2)c1-c1ccc(Cl)cc1,,103471,,,MIC,,8 µg/mL
CN1C(NC(=O)c2cnccn2)=NS(=O)(=O)c2cc(Cl)ccc21,,Clinical isolates drug-resistant,,,MIC,,>16 µg/mL
NC(=O)c1cnccn1,,VA205/niacin+,,,MIC,,>2048 µg/mL
Cc1c(CN2CCOCC2)c(CN2CCOCC2)c(-c2ccc(Cl)cc2)n1C1CCCCC1,,103471,,,MIC,,4 µg/mL
CO[C@H]1/C=C/O[C@@]2(C)Oc3c(C)c(O)c4c(=O)c(c5oc6cc(N7CCN(CC(C)C)CC7)cc(=O)c6nc5c4c3=C2O)NC(=O)/C(C)=C\C=C\[C@H](C)[C@H](O)[C@@H](C)[C@@H](O)[C@@H](C)[C@H](OC(C)=O)[C@@H]1C,,13 (isoniazid-resistant),,,MIC,,0.0019 µg/mL
Cn1cnc2c(NC(=O)Nc3ccc(F)cc3)nc(Cl)cc21,,H37Rv,visual reading,,MIC99,,6.5 µM
CN1C(NNC(=O)c2cccnc2)=NS(=O)(=O)c2ccc(Cl)cc21,,Clinical isolates drug-sensitive,,,MIC,,4–8 µg/mL
CCCCCCCCCCC(Oc1ccc(Cl)cc1Cl)C(=O)O,,H37Rv,,,MIC,,10 µg/mL
Cn1c(=O)c2[nH]c(CCCCc3nc4ccccc4[nH]3)nc2n(C)c1=O,,,resazurin,,MIC bound,,>6.25 µg/mL
CCCCCCCCCCCCCCC(Oc1ccccc1C)C(=O)O,,H37Rv,,,MIC,,1 µg/mL
Cn1cnc2c(NS(=O)(=O)c3ccc(Cl)cc3)nc(Cl)cc21,,H37Rv,visual reading,,MIC99,,25 µM
O=C(Oc1ccc(Cl)cc1C(=O)Nc1ccc(Br)cc1)c1ccccc1,,331/88 (H37Rv),broth dilution,,MIC,21 d,2 µM
CN[C@@H]1[C@H](O[C@H]2[C@H](O[C@H]3[C@H](O)[C@@H](O)[C@H](N=C(N)N)[C@@H](O)[C@@H]3N=C(N)N)O[C@@H](C)[C@]2(O)C=O)O[C@@H](CO)[C@H](O)[C@H]1O,Drug-resistant,D-211,resazurin,,MIC,,0.5 µM
O=C(Oc1ccc(Br)cc1C(=O)Nc1ccc(C(F)(F)F)cc1)c1ccccc1,,9449/2006,broth dilution,,MIC,21 d,1 µM
O=C1CC(SC(=S)N2CCOCC2)C(=O)N1,,CS-R,,,MIC,,3.2 µg/mL
Cc1cccc(S(=O)(=O)Nc2nc(Cl)cc3c2ncn3C)c1,,H37Rv,visual reading,,MIC99,,25 µM
CC(C)[C@@H]1NC(=O)[C@@H](C(C)C)OC(=O)[C@H](C(C)C)N(C)C(=O)[C@@H](C(C)C)OC(=O)[C@H](C(C)C)N(C)C(=O)[C@@H](C(C)C)OC1=O,,H37Ra,resazurin,,MIC,,4.88 µM
CCCC(NC(=O)OCc1ccccc1)C(=O)NC(CO)C(=O)O,,H37Rv,BACTEC,,MIC bound,,>12.8 µg/mL
O=C(O)c1c[nH]c2cc(OCc3ccccc3)ccc2c1=O,,H37Ra,,,MIC,,12.5 µM
Cn1cnc2c(NC(=O)Nc3cccc(Cl)c3)nc(Cl)cc21,,H37Rv,visual reading,,MIC99,,12.5 µM
O=C(CC(=O)N1N=C(n2ccc3ccccc32)CC1c1ccccc1)Nc1ccccc1Cl,,H37Rv,BACTEC,12.5 µg/mL,inhibition,,0%
CC(C)N1C(NNC(=O)c2cnccn2)=NS(=O)(=O)c2ccccc21,,H37Rv (ATCC 27294),,,MIC,,>16 µg/mL
COC(=O)c1ccc2ccccc2n1,,H37Rv,,6.25 µg/mL,inhibition,,9%
O=C(NNC1=NS(=O)(=O)c2ccccc2N1c1ccccc1)c1ccncc1,,Clinical isolates drug-sensitive,,,MIC,,>16 µg/mL
Cc1c([N+](=O)[O-])c(=O)oc2c1ccc1occc(=O)c12,,H37Rv,BACTEC,12.5 µg/mL,inhibition,,0%
O=C(Oc1cc(Cl)ccc1C(=O)Nc1ccc(Br)cc1)c1ccccc1,,331/88 (H37Rv),broth dilution,,MIC,21 d,2 µM
CCN1C(NNC(=O)c2cccnc2)=NS(=O)(=O)c2ccccc21,,Clinical isolates drug-resistant,,,MIC,,>16 µg/mL
NC(N)=NC(N)=Nc1c(F)c(F)c(F)c(F)c1F,,H37Rv,resazurin,6.25 µg/mL,inhibition,,25%
N#CSc1c(-c2ccc(Cl)cc2)nc2sc(S(N)(=O)=O)nn12,,H37Rv,,,MIC,,>6.25 µg/mL
O=C(NC(=S)Nc1ncc([N+](=O)[O-])s1)c1ccccc1C(=O)NC(=S)Nc1ncc([N+](=O)[O-])s1,,H37Rv,BACTEC,,MIC bound,,>12.5 µg/mL
Cc1ccc(-c2noc(C3=CC4(CCN(CC5CCCO5)CC4)c4ccccc43)n2)cn1,Spiroindene-resistant,TB365,turbidity,,MIC,,15.5 µM
CCCCCCn1c(C)c(CN2CCN(C)CC2)c(CN2CCN(C)CC2)c1C,,103471,,,MIC,,>64 µg/mL
Cc1noc(-c2ccc([N+](=O)[O-])o2)n1,,H37Rv,BACTEC,,MIC bound,,>12.5 µg/mL
C=C(NC(=O)C(=C)NC(=O)c1csc(C2=NC3CC4(C2)NC(=O)C(C)NC(=O)C(=C)NC(=O)C(=C)NC(=O)C(C(C)C)NC2C=Cc5c(C(C)O)cc(nc5C2O)C(=O)OC(C)C(NC(=O)c2csc(n2)C(C(C)(O)C(C)O)NC(=O)C2CSC(=N2)/C(=C\C)NC(=O)C(C(C)O)NC(=O)c2csc4n2)c2nc3cs2)n1)C(N)=O,,H37Ra,,,MIC,,6.25 µM
O=C(Oc1ccc(Cl)cc1C(=O)Nc1ccc(Cl)c(Cl)c1)c1ccccc1,,Praha 131,broth dilution,,MIC,14 d,0.5 µM
CSC(=S)N(C)/N=C/c1cccc(C)n1,,H37Rv,BACTEC,,MIC bound,,>128 µg/mL
Oc1ccc(CCN=C=S)cc1,,P multidrug-resistant,visual reading,,MIC,,4 µg/mL
CCCCSc1nc2c(=O)[nH][nH]c(=O)c2n1Cc1ccccc1,,H37Rv,BACTEC,,MIC bound,,>12.5 µg/mL
COC(=O)c1cc(C2CCCC2)nc2ccccc12,,H37Rv,,6.25 µg/mL,inhibition,,2%
C1=C(c2nc(-c3ccncc3)no2)c2ccccc2C12CCN(CC1CCCO1)CC2,,H37Rv,resazurin,,MIC,,6.3 µM
Cc1ccc(NC(=O)c2ccccc2C(=O)O)cc1Cl,,H37Rv,BACTEC,12.5 µg/mL,inhibition,,3%
CO[C@H]1[C@@H](O)[C@@H](C)O[C@H](O[C@H]2[C@H](Oc3cccc4c(O)c5c(=O)oc6ccc(C)c7c(=O)oc(c34)c5c67)O[C@H](C)[C@H](O)[C@@H]2O)[C@@H]1O,,H37Ra,,,MIC,,1.56 µM
Cc1ccc(-c2cn3nc(C(F)(F)F)sc3n2)cc1,,H37Rv,,,MIC,,40 µg/mL
CCCCCCCCCCC(Oc1ccc(C)cc1)C(=O)O,,H37Rv,,,MIC,,1 µg/mL
O=C1c2cccnc2-c2nccc3c2c1nc1cc(Br)ccc13,,H37Ra,,,MIC,,3.125 µM
C/C=C/C/C=C/CCC(=O)[C@H]1O[C@H]1C(N)=O,,Isolate 8H31,,,MIC,,3 µg/mL
Cc1c(CN2CCOCC2)c(CN2CCOCC2)c(C)n1Cc1ccccc1,,103471,,,MIC,,>64 µg/mL
C=C(C)O[C@H]1C[C@@]2(C)[C@@H](C[C@@H](O)[C@H]3[C@@]4(C)CC[C@@H](O)[C@@H](C)[C@@H]4CC[C@@]32C)/C1=C(\CCC=C(C)C)C(=O)[O-],,H37Ra,,,MIC,,1.56 µM
COC(=O)c1cc(C2CCCCC2)c2c(C3CCCCC3)cccc2n1,,H37Rv,,6.25 µg/mL,inhibition,,99%
COC(=O)n1c(=O)nc2c3c(ncn21)Oc1c(c(-c2ccccc2)nn1-c1ccccc1)C3c1ccc(Cl)cc1,,H37Rv,resazurin,6.25 µg/mL,inhibition,,99%
O=C(NNC1=NS(=O)(=O)c2ccccc2N1c1ccccc1)c1cccnc1,,H37Rv (ATCC 27294),,,MIC,,>16 µg/mL
Cc1c2cnccc2c(C)c2c1c1ccccc1n2CCCCCC#N,,H37Rv,resazurin,,MIC,,3.13 µg/mL
Cn1cnc2c(NC(=O)c3cccc(C(F)(F)F)c3)nc(Cl)cc21,,H37Rv,visual reading,,MIC99,,0.25 µM
CC1(C)Nc2cc3c(cc2-n2cccc21)oc1ccccc13,,H37Rv,BACTEC,,MIC bound,,>12.5 µg/mL
CC(=O)[C@]1(O)Cc2c(O)c3c(c(O)c2[C@@H](O[C@H]2C[C@H](N)[C@H](O)[C@H](C)O2)C1)C(=O)c1ccccc1C3=O,,H37Ra,,,MIC,,6.25 µM
CN(C)CCNc1ccc(CO)c2sc3ccc(O)cc3c(=O)c12,,H37Rv,BACTEC,,MIC,,≥12.8 µg/mL
CC(C)CC(NC(=O)c1nc2c(C(C)(C)C)cc(C(C)(C)C)cc2o1)C(=O)O,,My 331/88,,,MIC,,250 µM
CO[C@H]1/C=C/O[C@@]2(C)Oc3c(C)c(O)c4c(O)c(c(/C=N/N5CCN(C)CC5)c(O)c4c3C2=O)NC(=O)/C(C)=C\C=C\[C@H](C)[C@H](O)[C@@H](C)[C@@H](O)[C@@H](C)[C@H](OC(C)=O)[C@@H]1C,,Clinical isolate 2,,,MIC,,1 µg/mL
CCN(CC)c1cc2oc3cc(N)cc(=N)c-3nc2cc1C,,KM-R,,,MIC,,0.8 µg/mL
C1=C(c2nc(-c3cccnc3)no2)c2ccccc2C12CCN(CC1CCCO1)CC2,Spiroindene-resistant,H37Rv,turbidity,,MIC,,1.5 µM

8 of the rows above, restated:

O=C(O)c1cc(C2CCCCC2)nc2ccccc12 ; strain: H37Rv ; measure: MIC ; value: >6.25 µg/mL
C/C=C/C/C=C/CCC(=O)[C@H]1O[C@H]1C(N)=O ; strain: Isolate 8H31 ; measure: MIC ; value: 3 µg/mL
O=C(O)c1c[nH]c2cc(OCc3ccccc3)ccc2c1=O ; strain: H37Ra ; measure: MIC ; value: 12.5 µM
O=C1C(=Nc2cccc(Cl)c2)CC(c2ccc(Cl)cc2)N1c1ccc(Cl)cc1 ; strain: H37Rv ; method: BACTEC ; measure: MIC bound ; value: >6.25 µg/mL
CCN(CC)c1cc2oc3cc(N)cc(=N)c-3nc2cc1C ; strain: KM-R ; measure: MIC ; value: 0.8 µg/mL
NC(N)=NC(N)=Nc1c(F)c(F)c(F)c(F)c1F ; strain: H37Rv ; method: resazurin ; tested at: 6.25 µg/mL ; measure: inhibition ; value: 25%
COC(=O)c1ccc2ccccc2n1 ; strain: H37Rv ; tested at: 6.25 µg/mL ; measure: inhibition ; value: 9%
C=C(C)O[C@H]1C[C@@]2(C)[C@@H](C[C@@H](O)[C@H]3[C@@]4(C)CC[C@@H](O)[C@@H](C)[C@@H]4CC[C@@]32C)/C1=C(\CCC=C(C)C)C(=O)[O-] ; strain: H37Ra ; measure: MIC ; value: 1.56 µM

MIC bound comes from a single tested concentration. Conditions beyond the fields shown may differ between rows. MIC50, MIC90 and the like: level of inhibition, or share of isolates inhibited. a–b is a range or a potency band. Blank or dashed fields: not listed here. ECn: concentration that inhibits the pathogen or its effect by n%.